Pooled drug test results. Numbers come from NIAID ChemDB, via PubChem.

All rows: target-level tests; agent: HIV-1; target: Protease; endpoint: Ki

Neighbouring rows are from separate reports.

CC(C)C[C@H](NC(=O)[C@@H](NC(=O)CCCCCCCCCCCCCCC(=O)N[C@@H](CC(N)=O)C(=O)N[C@@H](Cc1ccccc1)C(=O)O)C(C)O)C(=O)N[C@@H](Cc1ccc(N)cc1)C(N)=O ; value: 1.41 µM
COc1ccc(CN2CC(=O)N[C@H](Cc3ccccc3)[C@H](O)[C@H]2CO)cc1 ; strain: IIIB ; value: 0.923 µM
CC(=O)N1C2C3C4N(C(C)=O)C5C(C1C5(CO)[C@H]3c1ccccc1)[C@@H](c1ccccc1)C24CO ; value: 0.13 µM
CC[C@H](C)[C@H](NC(=O)[C@@H](C[C@H](O)[C@H](CC(C)C)NC(=O)[C@H](CC(N)=O)NC(=O)[C@H](CCC(N)=O)NC(=O)[C@H](CO)NC(=O)[C@@H](N)C(C)C)C(C)C)C(=O)N[C@H](C(=O)O)C(C)C ; value: <0.001 µM
COc1ccc(CCOC(=O)[C@H]2[C@H](O)[C@H](Cc3ccccc3)NC(=O)N2Cc2ccc(OC)cc2)cc1 ; strain: IIIB ; value: >12.5 µM
CC(C)C[C@H](NC(=O)[C@@H](NC(=O)CCCCCCCCCCCCCCC(=O)N[C@@H](CC(N)=O)C(=O)N[C@@H](Cc1ccccc1)C(=O)O)C(C)O)C(=O)N[C@H](C(N)=O)C1CCCCC1 ; value: 1.1 µM
CC[C@H](C)[C@H](NC(=O)[C@@H](C[C@H](O)[C@H](CC1CCCCC1)NC(=O)CC(C)(C)C)C(C)C)C(=O)NCc1ccccn1 ; value: 0.07 µM
COc1ccc(CN2C(=O)N[C@H](Cc3ccccc3)[C@H](O)[C@H]2CO)cc1 ; strain: IIIB ; value: >12.5 µM
CC(C)CCNC(=O)[C@H](C(C)C)[C@@H](O)[C@H](O)C(=O)[C@H](CC(C)C)NC(=O)[C@H](Cc1cnc[nH]1)NC(=O)[C@H](Cc1ccccc1)NC(=O)OC(C)(C)C ; value: 0.36 µM
CCCCOC(=O)[C@H]1[C@H](O)[C@H](Cc2ccccc2)NC(=O)N1Cc1ccc(OC)cc1 ; strain: IIIB ; value: >12.5 µM
CC(C)C[C@H](NC(=O)[C@@H](NC(=O)CCCCCCCCCCCCCCC(=O)N[C@@H](CS(C)(=O)=O)C(=O)N[C@@H](Cc1ccccc1)C(=O)O)C(C)O)C(=O)N[C@@H](Cc1ccccc1)C(N)=O ; value: 0.904 µM
CC[C@H](C)[C@H](NC(=O)C[C@H](O)[C@H](CC(C)C)NC(=O)[C@H](CC(N)=O)NC(=O)[C@H](CCC(N)=O)NC(=O)[C@H](CO)NC(=O)[C@@H](N)C(C)C)C(=O)N[C@H](C(=O)O)C(C)C ; value: 3.69 µM
CC(O)[C@H](NC(=O)CCCCCCCCCCCCCCC(=O)N[C@@H](CC(N)=O)C(=O)N[C@@H](Cc1ccccc1)C(=O)O)C(=O)N[C@@H](CCc1ccccc1)C(=O)N[C@@H](Cc1ccccc1)C(N)=O ; value: 0.82 µM
CCC(C)[C@H](NC(=O)[C@H](C(C)C)[C@@H](O)[C@H](O)C(=O)[C@H](CC(C)C)NC(=O)[C@H](Cc1cnc[nH]1)NC(=O)[C@H](Cc1ccccc1)NC(=O)OC(C)(C)C)C(=O)NCc1ccccn1 ; value: 0.028 µM
CC(C)C[C@H](NC(=O)[C@@H](NC(=O)CCCCCCCCCCCCCCC(=O)N[C@H](C(=O)N[C@@H](Cc1ccccc1)C(=O)O)C(C)C)C(C)O)C(=O)N[C@@H](Cc1ccccc1)C(N)=O ; value: 0.93 µM
O=C(Oc1ccccc1)N1C2C3C4N(C(=O)Oc5ccccc5)C5C(C1C5(CO)[C@H]3c1ccccc1)[C@@H](c1ccccc1)C24CO ; value: 0.125 µM
O=S1(=O)N(Cc2ccc(CO)cc2)[C@H](Cc2ccccc2)CC(O)C[C@@H](Cc2ccccc2)N1Cc1ccc(CO)cc1 ; value: 2.1 µM
CC(C)C[C@H](NC(=O)[C@@H](NC(=O)CCCCCCCCCCCCCCC(=O)N[C@@H](Cc1ccc(N)cc1)C(=O)N[C@@H](Cc1ccccc1)C(=O)O)C(C)O)C(=O)N[C@@H](Cc1ccccc1)C(N)=O ; value: 0.26 µM

The first 2 rows once more:

CC(C)C[C@H](NC(=O)[C@@H](NC(=O)CCCCCCCCCCCCCCC(=O)N[C@@H](CC(N)=O)C(=O)N[C@@H](Cc1ccccc1)C(=O)O)C(C)O)C(=O)N[C@@H](Cc1ccc(N)cc1)C(N)=O ; value: 1.41 µM
COc1ccc(CN2CC(=O)N[C@H](Cc3ccccc3)[C@H](O)[C@H]2CO)cc1 ; strain: IIIB ; value: 0.923 µM